Values quoted from earlier work in US5686417A, “Peptide T and related peptides in the treatment of HTLV-1 myelopathy and multiple sclerosis” (Reed MacFadden, Ltd., priority 1995, dated 1997).

Settings: in vivo; cited from earlier work

C[C@@H](N)C(=O)N[C@@H](CO)C(=O)N[C@H](C(=O)N[C@H](C(=O)N[C@H](C(=O)N[C@@H](CC(N)=O)C(=O)N[C@@H](Cc1ccc(O)cc1)C(=O)N[C@H](C(N)=O)[C@@H](C)O)[C@@H](C)O)[C@@H](C)O)[C@@H](C)O [Peptide T, D-Ala-Ser-Thr-Thr-Thr-Asn-Tyr-Thr- Amide]
transport from the blood to the brain: active, saturable transport system
